Anti-infective test results gathered from many reports (values: NIAID ChemDB through PubChem).

Common to all: enzyme or target tests; species: Hepatitis C virus; protein: RNA-dependent RNA polymerase; endpoint: IC50

Two numbers with a dash give a range or band. ICn is the concentration giving n% inhibition. Conditions beyond the fields shown may differ between rows.

COc1cc(C(=O)N2[C@@H](c3nccs3)[C@@H](c3noc(C)n3)C[C@@]2(CC(C)C)C(=O)O)ccc1C(C)(C)C ; value: <50 µM
NN1CCN(/N=C\c2ccc(O)c(O)c2O)CC1 ; value: 10–20 µM
CSc1ccc(-c2cnc3c(C(=O)O)cnn3c2C2CCCCC2)cc1 ; value: 1–10 µM
Cc1cc(Cl)ccc1C(=O)N(Cc1ccc(-c2cccc(C(F)(F)F)c2)s1)C(Cc1ccccc1)C(=O)O ; value: <5 µM
Cc1ccc(C(=O)NN2CCOCC2)c(Nc2ccc3cn[nH]c3c2)n1 ; value: <0.01 µg/mL
O=C(N[C@@H](Cc1cc2ccccc2[nH]1)C(=O)O)c1cc2nc(-c3ccco3)c(C3CCCCC3)c(=O)n2[nH]1 ; value: 1–10 µM
Cc1cc([C@@H]2C[C@@](CC(C)C)(C(=O)O)N(C(=O)c3ccc(C(C)(C)C)cc3)[C@H]2c2nccs2)n[nH]1 ; value: <50 µM
O=C(O)c1cc2nc(-c3cccc(Cl)c3)cc(-c3ccc(-c4ccccc4)cc3)n2n1 ; value: 1–10 µM
O=C(O)[C@H](Cc1ccccc1)N(Cc1ccc(-c2cccc(C(F)(F)F)c2)o1)C(=O)c1ccc(Cl)cc1Cl ; value: <5 µM
Cc1ccc(C(=O)NCc2cccnc2)c(Nc2ccc3cn[nH]c3c2)n1 ; value: ~0.1 µg/mL
CCCN(C(=O)c1ccc(Cl)cc1Cl)[C@@H](Cc1ccccc1)C(=O)O ; value: >20 µM
Cc1nc([C@H]2C[C@@](CC(C)C)(C(=O)O)N(C(=O)c3ccc(C(C)(C)C)cc3)[C@H]2c2nccs2)n[nH]1 ; value: <50 µM
CCOC(=O)c1cnn2c(-c3ccccc3Cl)cc(-c3ccc(F)cc3)nc12 ; value: >10 µM
Cc1ccc(C(=O)NCCN(C)C)c(Nc2ccc3cn[nH]c3c2)n1 ; value: <0.1 µg/mL
NN1CCN(/N=C\c2cc(O)c(O)c(O)c2)CC1 ; value: 5 µM
CS(=O)c1ccc(-c2cnc3c(-c4nn[nH]n4)cnn3c2C2CCCCC2)cc1 ; value: >10 µM
Cc1ccc(C(=O)NCCc2ccccn2)c(Nc2ccc3[nH]ncc3c2)n1 ; value: <0.1 µg/mL
O=C(O)[C@H](Cc1ccccc1)N(Cc1ccc(Br)o1)C(=O)c1ccc(Cl)cc1Cl ; value: 5–20 µM
Cc1noc([C@@H]2C[C@@](CC(C)C)(C(=O)O)N(C(=O)c3ccc(C(C)(C)C)cc3)[C@H]2c2nccs2)n1 ; value: <50 µM
O=C(O)C(Cc1ccccc1)N(Cc1ccc(-c2cccc(Cl)c2)o1)C(=O)c1ccc(Cl)cc1Cl ; value: <5 µM
COc1cc(C(=O)N2[C@@H](c3nccs3)[C@@H](c3nc(C)no3)C[C@@]2(C)C(=O)O)ccc1C(C)(C)C ; value: <50 µM
Oc1ccc(/C=N\N2CCOCC2)cc1O ; value: >400 µM
Cc1noc([C@H]2C[C@@](CC(C)C)(C(=O)O)N(C(=O)c3ccc(C(C)(C)C)cc3)[C@H]2c2cccnc2)n1 ; value: <50 µM
O=C(O)[C@H](Cc1ccccc1)N(Cc1ccc(-c2ccccc2Cl)o1)C(=O)c1ccc(Cl)cc1Cl ; value: <5 µM
Cc1ccc(C(=O)Nc2cccnc2)c(Nc2ccc3[nH]ncc3c2)n1 ; value: <1 µg/mL
O=C(O)C(Cc1ccccc1)N(Cc1ccc(-c2cccc(F)c2)s1)C(=O)c1ccc(Cl)cc1Cl ; value: <5 µM
C[N+]1(C)CCN(/N=C\c2cc(O)c(O)c(O)c2)CC1 ; value: 10 µM

A second listing of 3 rows from above:

C[N+]1(C)CCN(/N=C\c2cc(O)c(O)c(O)c2)CC1 ; value: 10 µM
Cc1cc([C@@H]2C[C@@](CC(C)C)(C(=O)O)N(C(=O)c3ccc(C(C)(C)C)cc3)[C@H]2c2nccs2)n[nH]1 ; value: <50 µM
Cc1noc([C@H]2C[C@@](CC(C)C)(C(=O)O)N(C(=O)c3ccc(C(C)(C)C)cc3)[C@H]2c2cccnc2)n1 ; value: <50 µM